How the values were obtained:
[1] = target: human NaV1.7 voltage-gated sodium channel (human, UniProt Q15858); experiment: cell-based or functional assay
[2] = target: hNav 1.5 (human, UniProt Q14524); experiment: cell-based or functional assay

## GWCGDAGATCGKLRLYCCSGFCDCYTKTCKDKSSA [C.geo1[C24Cys(Acm)]]
[1]
  IC50, block of hNaV1.7: > 1000 nM

## GWCGDAGATCGKLRLYCCSGFCDCYTKTCKDKSSA [C.geo1[1-35]]
[2]
  IC50: > 10000 nM

## GWCGDAGATCGKLRLYCCSGFCDCYTKTCKDKSSA (Pen at 24; structure printed only as a drawing) [C.geo1[C24Pen]]
[1]
  IC50, block of hNaV1.7: > 1000 nM

## GWCGDAGATCGKLRLYCCSGFCDCYTKTCKDKSSA [C.geo1[desGSH]]
[2]
  IC50: > 10000 nM

## GWCGDAGATCGKLRLYCCSGFCDCYTKTCKDKSSA (HoCys at 24; structure printed only as a drawing) [C.geo1[C24HoCys]]
[1]
  IC50, block of hNaV1.7: 1500 nM

## GWCGDAGATCGKLRLYCCSGFCDCYTKTCKDKSSA [C.geo1[cystamine]]
[2]
  IC50: > 10000 nM

Source: patent publication US20150322120A1, “SODIUM CHANNEL SENSITIVE CONOPEPTIDES AND ANALOGS, INCLUDING COMPOSITIONS AND METHODS THEREOF” (University of Utah Research Foundation, published 2015)
